Compound potency records, mixed from different reports. Data source: NIAID ChemDB in PubChem.

Shared fields: whole-cell or culture tests; organism: HIV-1; cell line: CEM + CEM-SS; measure: fold resistance

Neighbouring rows are from separate reports.

SMILES	strain or isolate	changes	method	value
Cc1cn([C@H]2C[C@H](N=[N+]=[N-])[C@@H](CO)O2)c(=O)[nH]c1=O	UC38-resistant (RT Y181C)	RT-Y181C	XTT	0.2
Cc1occc1C(=S)Nc1ccc(Cl)c(/C=N/OC(C)(C)C)c1	NL4-3 (RT L74V)	RT-L74V	cytopathic effect / XTT	0.875
CCCc1cc(=O)oc2c3c(c4c(c12)OC(C)(C)C=C4)O[C@H](C)[C@@H](C)[C@@H]3O	IIIB(THZ-R(I))	RT-V108I	cytopathic effect / XTT	16
C/C=C/CSc1cc(NC(=S)c2ccsc2C)ccc1Cl	Calanolide A-resistant (RT T139I)	RT-T139I	cytopathic effect / XTT	2
CCc1c(C(=O)c2cc(C)cc(C)c2)n(CC2CC=CC2)c(=O)[nH]c1=O	NL4-3	RT-L100I	cytopathic effect / XTT	0.1
O=S1(c2ccccc2)=NC(=S)Nc2ccccc21	IIIB(CALO-R(II))	RT-V90I T139I P225S	cytopathic effect / XTT	1.9
Cc1cn([C@H]2C[C@H](N=[N+]=[N-])[C@@H](CO)O2)c(=O)[nH]c1=O	NL4-3	RT-K103E	cytopathic effect / XTT	2
CCc1c(Sc2ccccn2)n(COCc2ccccc2)c(=O)[nH]c1=O	IIIB(TIBO-R(I))	RT-A98G V108I	cytopathic effect / XTT	57
Cc1c(Sc2ccccc2)n(COCCO)c(=O)[nH]c1=O	IIIB	RT-P236L	cytopathic effect / XTT	>18
Cc1cn([C@H]2C[C@H](N=[N+]=[N-])[C@@H](CO)O2)c(=O)[nH]c1=O	NL4-3	RT-Y181C	cytopathic effect / XTT	3.33
Cc1ccnc2c1NC(=O)c1cccnc1N2C1CC1	NL4-3	RT-Y181C	cytopathic effect / XTT	65
Cc1ccnc2c1NC(=O)c1cccnc1N2C1CC1	NL4-3	RT-L100I	cytopathic effect / XTT	5
Fc1cccc(F)c1C1SCc2nc3ccccc3n21	UC040-R (RT-Y181C)	RT-Y181C	cytopathic effect / XTT	>20.3
Cc1cn([C@H]2C[C@H](N=[N+]=[N-])[C@@H](CO)O2)c(=O)[nH]c1=O	IIIB(DPS-R(III))	RT-Y181C	cytopathic effect / XTT	2.7
CC(C)=CCN1Cc2cccc3[nH]c(=S)n(c23)C[C@@H]1C	Calanolide A-resistant (RT T139I)	RT-T139I	XTT	4
Cc1ccnc2c1NC(=O)c1cccnc1N2C1CC1	NL4-3 (RT L74V)	RT-L74V	cytopathic effect / XTT	1
CCc1c(Sc2ccccn2)n(COCc2ccccc2)c(=O)[nH]c1=O	NL4-3	RT-K103N	cytopathic effect / XTT	21.1

Fold resistance has wild type as its base.